Compound potency records, mixed from different reports. Data source: NIAID ChemDB in PubChem.

All rows: tests in culture; organism: HIV-1; cells: MT-4; measure: EC50

An empty or dashed field is not shown. Conditions beyond the fields shown may differ between rows. ECn: concentration that inhibits the pathogen or its effect by n%. Two numbers with a dash give a range or band.

smiles	strain	changes	method	result
Cc1cc(C)cc(Sc2c(C)c(=O)[nH]c(=S)n2COCCO)c1				<0.8 µM
CCc1nc([N+](=O)[O-])c(N2CCN(C(=O)c3ccc(F)cc3)CC2)n1Cc1ccccc1	IIIB		syncytia	>57.5 µg/mL
COC(=O)N[C@H](C(=O)NN(CC[C@@]1(Cc2ccccc2)C(=O)N(C2c3ccccc3C[C@H]2O[Si](C)(C)C(C)(C)C)C[C@@H]1O[Si](C)(C)C(C)(C)C)Cc1ccc(Br)cc1)C(C)(C)C			XTT	>10 µM
CCCCOc1nc(Cc2ccccc2)c(CC)c(=O)[nH]1	IIIB		cytopathic effect / MTT	32 µM
CCc1nc([N+](=O)[O-])c(N2CCN(C(=O)CSCc3ccccc3)CC2)n1Cc1ccccc1	IIIB		syncytia	>7.64 µg/mL
Cc1c(Sc2ccccc2)n(COCc2ccccc2)c(=O)[nH]c1=O				0.076 µM
COC(=O)N[C@H](C(=O)NN(CC[C@@]1(Cc2ccccc2)C(=O)N(C2c3ccccc3C[C@H]2O)C[C@@H]1O)Cc1ccc(-c2ccccn2)cc1)C(C)(C)C			XTT	2.5 µM
CCc1nc([N+](=O)[O-])c(N2CCN(C(=O)c3ccc(Cl)cc3Cl)CC2)n1Cc1ccccc1	IIIB		syncytia	>14.6 µg/mL
COC(=O)Cn1c(Cc2ccccc2)c(C(C)C)c(=O)[nH]c1=O	IIIB		cytopathic effect / MTT	0.77 µM
c1ccc(-c2ncc(C(c3ccccc3)n3cncn3)c(-c3ccccc3)n2)cc1	IIIB		cytopathic effect / MTT	>200 µM
CCOC(=O)CCCn1c(Cc2ccccc2)c(C(C)C)c(=O)[nH]c1=O	IIIB		cytopathic effect / MTT	1.6 µM
CC1(C)Oc2ccc3ccc(=O)oc3c2[C@@H](OC(=O)C23CCC(C)(C(=O)O2)C3(C)C)[C@H]1OC(=O)C12CCC(C)(C(=O)O1)C2(C)C	RTMDR1	RT-M41L L74V V106A T215Y	p24	7 µM
CCc1nc([N+](=O)[O-])c(N2CCN(C(=O)CSC)CC2)n1Cc1ccccc1.COc1ccccc1	IIIB		syncytia	>6.02 µg/mL
CCOC(=O)c1cccn1CC(O)CNc1ccccc1	IIIB		cytopathic effect / MTT	>200 µM
N#CC1=CC2C(c3ccccc3N2CCCN2CCOCC2)N(c2ccc([N+](=O)[O-])cc2)C1=O	LAI		cytopathic effect / MTT	<1 µM
CC(C)c1c(Cc2ccccc2)n(CCCC(N)=O)c(=O)[nH]c1=O	IIIB		cytopathic effect / MTT	2.2 µM
CN1c2ccccc2C2C1C=C(C#N)C(=O)N2c1ccc(Br)cc1	LAI		cytopathic effect / MTT	1–32 µM
CCOC(=O)c1cc2cc(Cl)ccc2n1CC(O)CNc1ccccc1C(=O)OC	IIIB		cytopathic effect / MTT	>39 µM
CCc1nc([N+](=O)[O-])c(N2CCN(C(=O)CSC)CC2)n1Cc1ccccc1.c1ccc2ccccc2c1	IIIB		syncytia	>4.48 µg/mL
CCC(C)C(NC(=O)c1ccccc1SSc1ccccc1C(=O)NC(C(=O)O)C(C)CC)C(=O)O	6R (AZT-resistant)		cytopathic effect / XTT	0.3 µM
COC(=O)N[C@H](C(=O)NN(CC[C@]1(Cc2ccccc2)C(=O)N(C2c3ccccc3C[C@H]2O)C[C@@H]1O)Cc1ccc(Br)cc1)C(C)(C)C			XTT	2.5 µM
CCc1nc([N+](=O)[O-])c(N2CCN(C(=O)OCn3c4ccccc4c4ccccc43)CC2)n1Cc1ccccc1	IIIB		syncytia	>11.3 µg/mL
N#Cc1cc2[nH]c3ccccc3c2n(-c2ccc([N+](=O)[O-])cc2)c1=O	J	RT-I31L L100I K103N E138G Y181C L214F	cytopathic effect / MTT	1.59 µM
COC(=O)N[C@H](C(=O)NN(CC[C@@]1(Cc2ccccc2)C(=O)N(C2c3ccccc3C[C@H]2O)C[C@H]1O)Cc1ccc(-c2cccnc2)cc1)C(C)(C)C			XTT	2.5 µM
O=c1cc(Cc2ccccc2)nc(OCC2CCCO2)[nH]1	IIIB		cytopathic effect / MTT	58 µM
CCOCn1c(Sc2ccccc2)c(CC)c(=O)[nH]c1=O				0.016 µM
COC(=O)N[C@H](C(=O)NN(CC[C@@]1(Cc2ccccc2)C(=O)N(C2c3ccccc3C[C@H]2O)C[C@@H]1O)Cc1ccc(-c2ccncc2)cc1)C(C)(C)C			XTT	2.5 µM
CCc1c(Sc2cc(C)cc(C)c2)n(COCc2ccccc2)c(=O)[nH]c1=O				0.005 µM
CCCOc1nc(Cc2ccccc2)c(C)c(=O)[nH]1	IIIB		cytopathic effect / MTT	29 µM
CCOC(=O)c1cc2ccccc2n1CC(O)CNc1ccccc1C(=O)OC	IIIB		cytopathic effect / MTT	>39 µM
COC(=O)N[C@H](C(=O)NN(CC[C@@]1(Cc2ccccc2)C(=O)N(C2c3ccccc3C[C@H]2O)C[C@H]1O)Cc1ccc(Br)cc1)C(C)(C)C			XTT	2.5 µM
CC1=C(C(=O)Nc2cccc([N+](=O)[O-])c2)C2=NN=C(N)C2C(=O)N1	IIIB		MTT	101 µg/mL
CCOCn1c(Cc2ccccc2)c(C(C)C)c(=O)[nH]c1=O	IIIB		cytopathic effect / MTT	0.018 µM
CCOCn1c(Cc2cc(C)cc(C)c2)c(CC)c(=O)[nH]c1=O				0.0064 µM
CN(C)CCCN1c2ccccc2C2C1C=C(C#N)C(=O)N2c1ccc([N+](=O)[O-])cc1	LAI		cytopathic effect / MTT	<1 µM
CCc1c(Cc2ccccc2)nc(OC(C)C)[nH]c1=O	IIIB		cytopathic effect / MTT	26 µM
Cc1ncc(C(c2ccccc2)n2ccnc2)c(-c2ccccc2)n1	IIIB		cytopathic effect / MTT	>200 µM
CC1=C(C(=O)Nc2ccccc2)C2=NN=C(N)C2C(=O)N1	IIIB		MTT	94.7 µg/mL
CC(C)c1c(Cc2ccccc2)n(CCCCCC(N)=O)c(=O)[nH]c1=O	IIIB		cytopathic effect / MTT	1.8 µM
CCOC(=O)c1cn(CC(O)CNc2cccc(C)c2)cc1-c1ccccc1	IIIB		cytopathic effect / MTT	>22.2 µM
CCOCn1c(Sc2ccccc2)c(C)c(=O)[nH]c1=O				0.8 µM
CCc1nc([N+](=O)[O-])c(N2CCN(C(=O)CSc3ccccc3)CC2)n1Cc1ccccc1	IIIB		syncytia	>1.74 µg/mL
Cc1c(Sc2ccccc2)n(COCCCl)c(=O)[nH]c1=O				1.7 µM
CN[C@@H]1[C@H](O[C@H]2[C@H](O[C@H]3[C@H](O)[C@@H](O)[C@H](N=C(N)N)[C@@H](O)[C@@H]3N=C(N)N)O[C@@H](C)[C@]2(O)C=O)O[C@@H](CO)[C@H](O)[C@H]1O	IIIB		cytopathic effect / MTT	>200 µM
Cc1c(Sc2ccccc2)n(COCCOC(=O)C2CCCCC2)c(=O)[nH]c1=O				7.5 µM
COC(=O)N[C@H](C(=O)NN(CC[C@@]1(Cc2ccccc2)C(=O)N(C2c3ccccc3C[C@H]2O)C[C@H]1O)Cc1ccc(-c2ccncc2)cc1)C(C)(C)C			XTT	2.5 µM
CCC(=O)OCCOCn1c(Sc2ccccc2)c(C)c(=O)[nH]c1=O				7.1 µM
CCc1ccc(NC(=O)C2=C(C)NC(=O)C3C(N)=NN=C23)cc1	IIIB		MTT	98 µg/mL